# Measured values from US20250026813A1, “Antibodies against sars-cov-2 and uses thereof” (published 2025).
# Molecular target: RBD domain of the SARS-CoV-2 spike protein (Acro Biosystems SPD-C52H3), His tag (SARS-CoV-2, UniProt P0DTC2 319-537)
row,Binder,HTRF deltaF [deltaF]
1,"IMPI-024 (antibody, V domains shown) VH: EVQLVQSGAEVKKPGESLKISCKGSGYSFTSYWIGWVRQMPGKGLEWMGIIYPGDSDTRYSPSFQGQVTISADKSISTAYLQWSSLKASDTAMYYCVRSYNWNYFDYWGQGTLVTVSS VL: AIQLTQSPSSLSASVGDRVTITCRASQGISSGLAWYQQKAGKAPKLLIYDVSSLESGVPSRFSGSGSGTDFTLTISSLQPEDFATYYCQQFLSYPWTFGQGTKVEIK",225
2,"IMPI-054 (antibody, V domains shown) VH: EVQLVESGGGLIQPGGSLRLSCAASGLTVSSNYMSWVRQAPGKGLEWVSIIYSGGSTYYADSVKGRFTISRDNSKNTLYLQMNSLRAEDTAVYYCARLGGYYYYGMDVWGQGTTVTVSS VL: DIQMTQSPSSLSASVGERVTITCQASQDIRNYLNWYQKKPGKAPKLLIYDSSNLETGVPSRFSGSGSGTDFTFTISSLQPEDIATYYCQQYDNLPITFGQGTRLEIK",818
3,"IMPI-042 (antibody, V domains shown) VH: EVQLVESGGGLIQPGGSLRLSCAASGLTVSSNYMSWVRQAPGKGLEWVSIIYSGGSTYYADSVKGRFTISRDNSKNTLYLQMNSLRAEDTAVYYCARLGGYYYYGMDVWGQGTTVTVSS VL: DIQMTQSPSSLSASVGERVTITCQASQDIRNYLNWYQKKPGKAPKLLIYDSSNLETGVPSRFSGGGSGTDFTFTISSLQPEDIATYYCQQYDNLPITFGQGTRLEIK",121
4,"IMPI-063 (antibody, V domains shown) VH: EVQLVESGGGVVRPGGSLRLSCAASGFTFDDYGMSWVRQAPGKGLEWVSGIYWNGGSTGYADSVKGRFTISRDNAKNSLYLQMNSLRAEDMALYYCARGVGATDYWGQGTLVTVSS VL: EIVLTQSPGTLSLSSGERATLACRASESVRGSFLAWYQQKPGQAPRLLIYGASRRATGIPDRFSGSGSGTDFTLTISRLEPEDFAVYYCQQYGNSPMCSFGQGTKLEIK",-7.3
5,"IMPI-029 (antibody, V domains shown) VH: EVQLVESGGGLIQPGGSLRLSCAASGVTVSSNYMNWVRQAPGKGLEWVSVIYSGGSTYYADSVKGRFTISRDNSKNTLFLQMNSLRAEDSAVYYCARDLGPYGVDVWGQGTTVTVSS VL: DIQLTQSPSFLSASVGDRVTITCWASQGISSYLAWYQQKPGKAPKLLIYAASTLQSGVPSRFSGSGSGTEFTLTISSLQPEDFATYYCQELNSYPLTFGQGTRLEIK",1180
6,"IMPI-005 (antibody, V domains shown) VH: EVQLVESGGGLIQPGGSLRLSCAASGFTVSSNYMNWVRQAPGKGLEWVSVIYSGGSTYYADSVKGRFTISRDNSKNTLFLQMNSLRAEDSAVYYCARDLGPYGVDVWGQGTTVTVSS VL: DIQLTQSPSFLSASVGDRVTITCWASQGISSYLAWYQQKPGKAPKLLIYAASTLQSGVPSRFSGSGSGTEFTLTISSLQPEDFATYYCQELNSYPLTFGQGTRLEIK",608
7,"IMPI-021 (antibody, V domains shown) VH: EVQLVESGGGLIQPGGSLRLSCAASGVTVSSNYMSWVRQAPGKGLEWVSVIYSGGSTFYADSVKGRFTISRDNSKNTLYLQMNSLRAEDTAVYYCARDLSYYGMDVWGQGTTVTVSS VL: DIQLTQSPSFLSASVGDRVTITCWASQGISSYLAWYQQKPGKAPKLLIYAASTLQSGVPSKFSGSGSGTEFTLTISSLQPEDFATYYCQQLNSYPCSFGQGTKLEIK",597
8,"IMPI-060 (antibody, V domains shown) VH: EVQLVESGGGLIQPGGSLRLSCAASGVTVSSNYMSWVRQAPGKGLEWVSVIYSGGSTFYADSVKGRFTISRDNSKNTLYLQMNSLRAEDTAVYYCARDLSYYGMDVWGQGTTVTVSS VL: DIQLTQSPSFLSASVGDRVTITCWASQGISSYLAWYQQKPGKAPKLLIYAASTLQSGVPSKFSGSGSGTEFTLTISSLQPEDFATYYCQQLNSYPSSFGQGTKLEIK",217
9,"IMPI-047 (antibody, V domains shown) VH: EVQLVESGGGLIQPGGSLRLSCAASGFTVSSNYMNWVRQAPGKGLEWVSVIYSGGSTYYADSVKGRFTISRDNSKNTLYLQMNSLRTEDTAVYYCARDLVAYGMDVWGQGTTVTVSS VL: DIQLTQSPSFLSASVGDRVTITCWASQGISSYLAWYQQKPGKAPKVLIYAASTLQSGVPSRFSGSGSGTEFTLTISSLQPEDFATYYCQLLNSNPLTFGGGTKVEIK",899
10,"IMPI-006 (antibody, V domains shown) VH: QLQLQESGPGLVKPSETLSLTCTVSGGSISNSNYYWGWIRQPPGKGLEWIGSIYYSGRTYYNPSLKSRVTISVDTSKNQFSLKLSSVTAADTAVYYCARMGLLWFGEFYGMDVWGQGTTVTVSS VL: DIQMTQSPSSLSASVGDRVTITCRASQGISSWLAWYQQKPEKAPKSLIYDASSLQRGVPSRFSGSGSGTDFTLTISSLQPEDFASYYCQQYNSYPLTFGGGTRVEIK",331
11,"IMPI-055 (antibody, V domains shown) VH: QVQLVQSGAEVKKPGASVKVSCKASGYTFTSYDINWVRQATGQGLEWMGWMNPNSGNTGYAQKFQGRVTMTRDTSINTAYMELSSLRSEDTAVYFCARGGRYCSDVTCYSGEPFDYWGQGTLVTVSS VL: EIMLTQSPDFQSVTPKEKVTITCRASQSIGSSLHWYQQKPDQSPKLLIKFASQSISGVPSRFSGSGSGTDFTLTINSLEAEDAAAYYCHQSSSLPHTFGPGTKVEIK",983
12,"IMPI-017 (antibody, V domains shown) VH: EVQLVESGGGLIQPGGSLRLSCAAAGLTVSSNYMNWVRQVPGKGLEWVSVIYSGGSTYYADSVKGRFTISRDNSKNTLYLQMNSLRAEDTAVYYCARDLGTLGMDVWGQGTTVTVSS VL: DIQLTQSPSFLSASVGDRVTITCWASQGISTYLAWYQQKPGKAPKLLIYAASTLQSGVPSRFSGSGSGTEFTLTISSLQPEDFATYYCQQLNSYLPTFGQGTKVEIK",894
13,"IMPI-059 (antibody, V domains shown) VH: EVQLVESGGGLIQPGGSLRLSCAASGFTVSSIYMSWVRQAPGKGLEWVSIIYSRGSTDYADSVKGRFTISRDISKNTLYLQMNSLRAEDTAVYYCARDGTMVRGVHAFDIWGQGTMVTVSS VL: DIQMTQSPPSLSASIGDRVTITCQASQDISNYLNWYQQKPGKAPKLLIYDASNLETGVPSRFSGSGSGTDFTLTISNLQPEDIVTYYCQQYDNLPSSFGQGTKLEIK",882
14,"IMPI-027 (antibody, V domains shown) VH: QVQLQESGPGLVKPSQTLSLTCTVSGGSISSYGYYWNWIRQHPGKGLEWIGYIYYSGSTYYNPSLKSRVTISVDTSKNQLSLRLNSVSAADTAVYYCARDFGGNSNYFDYWGQGTLVTVSS VL: AIQLTQSPSSLSASVGDRVTITCRTSQGISSALAWYQQKPGKAPKLLIYDASSLESGVPSRFSGSGSGTDFTLTISSLQPEDFATYYCQQFNSYPLTFGGGTKVEIK",318
15,"IMPI-033 (antibody, V domains shown) VH: QVQLQESGPGLVKPSQTLSLTCTVSGGSISSYGYYWSWIRQHPGKGLEWIGYIYYSGSTYYNPSLKSRVTMSVDTSKNQLSLRLNSVSAADTAVYYCARDFGGNSNYFDYWGQGTLVTVSS VL: AIQLTQSPSSLSASVGDRVTITCRASQGISSALAWYQQKPGKAPNLLIYDASSLESGVPSRFSGSGSGTDFTLTISSLQPEDFATYYCQQFNSSPLTFGGGTKVEIK",454
16,"IMPI-032 (antibody, V domains shown) VH: QVQLQESGPGLVKPSGTLSLTCAVSGGSISSNKWWSWVRQPPGKGLEWIGEIDHSGSTMYNPSLKSRVTISVDKSKNQFSLKLNSVTAADTAVYYCTGEGYNWNYWGQGTRVTVSS VL: DVVMTQSPLSLPVTLGQTASISCRSSQSLLYTDGNTYLSWFQQRPGQSPRRLIYKVSKWESGVPDRFSGSGSGTDFTLKISRVEAEDVGIYYCMQGTHWPLTFGGGTKVEIK",4
17,"IMPI-022 (antibody, V domains shown) VH: EVQLVESGGGLVQPGRSLRLSCAASGFTFDDYAMHWVRQAPGKGLEWVSGITWNSGSIGYADSVKGRFTISRDNAKNSLYLHMNSLRVEDTALYYCAKDLQGDYYYYGVDVWGQGTTVTVSS VL: AIQLTQSPSSLSASVGDRVTITCRASQGISSALAWYQQKPGKAPKLLLYDASSLVSGVPSRFSGSRSGTDFTLTISSLQPEDFATYYCQQFISYPLTFGGGTRVEIK",-2.4
